A mixed list of measured activities; the numbers were collected in NIAID ChemDB.

Shared fields: tests in culture; species: Streptococcus pneumoniae; measure: MIC

Rows are shuffled and stem from different studies.

structure | strain or isolate | value
CC[C@H]1OC(=O)[C@H](C)C(=O)[C@H](C)[C@@H](O[C@@H]2O[C@H](C)C[C@H](N(C)C)[C@H]2O)[C@@]2(C)C[C@@H](C)C(=NC(C)=O)[C@H](C)[C@@H](OC/C(=N\OCC#Cc3cncnc3)CO2)[C@]1(C)O | 700906 (erythromycin-resistant-ERM) | 4 µg/mL
CC[C@H]1OC(=O)[C@H](C)C(=O)[C@H](C)[C@@H](O[C@@H]2O[C@H](C)C[C@H](N(C)C)[C@H]2O)[C@@]2(C)C[C@@H](C)C(=NC(=O)CO)[C@H](C)C(OC/C(=C\C=C\c3ccccc3)CO2)[C@]1(C)O | 700906 (erythromycin-resistant-ERM) | 8 µg/mL
CC[C@H]1OC(=O)[C@H](C)C(=O)[C@H](C)[C@@H](O[C@@H]2O[C@H](C)C[C@H](N(C)C)[C@H]2O)[C@@]2(C)C[C@@H](C)C(=NC(C)=O)[C@H](C)[C@@H](OC/C(=N\OCc3cccc(N)n3)CO2)[C@]1(C)O | 700906 (erythromycin-resistant-ERM) | 0.13 µg/mL
CC[C@H]1OC(=O)[C@H](C)C(=O)[C@H](C)[C@@H](O[C@@H]2O[C@H](C)C[C@H](N(C)C)[C@H]2O)[C@@]2(C)C[C@@H](C)C(=NC(=O)CN)[C@H](C)C(OC/C(=C\C=C\c3ccccc3)CO2)[C@]1(C)O | 49619 (erythromycin-susceptible) | <0.06 µg/mL
CC[C@H]1OC(=O)[C@@](C)(F)C(=O)[C@H](C)[C@@H](O[C@@H]2O[C@H](C)C[C@H](N(C)C)[C@H]2O)[C@@]2(C)C[C@@H](C)C(=NC(C)=O)[C@H](C)[C@@H](OC/C(=N\OCc3ccc(N)nc3)CO2)[C@]1(C)O | 49619 (erythromycin A-susceptible) | <0.06 µg/mL
CC[C@H]1OC(=O)[C@H](C)C(=O)[C@H](C)[C@@H](O[C@@H]2O[C@H](C)C[C@H](N(C)C)[C@H]2O)[C@@]2(C)C[C@@H](C)C(=NC(C)=O)[C@H](C)[C@@H](OC/C(=N\OCc3ccc(C(N)=O)cc3)CO2)[C@]1(C)O | 49619 (erythromycin-susceptible) | <0.06 µg/mL
O=C(O)NC[C@H]1CC(c2ccc(N3CCOCC3)c(F)c2)=NO1 | UC9912 | 1 µg/mL
CC[C@H]1OC(=O)[C@H](C)C(=O)[C@H](C)[C@@H](O[C@@H]2O[C@H](C)C[C@H](N(C)C)[C@H]2O)[C@@]2(C)C[C@@H](C)C(=NC(C)=O)[C@H](C)C(OC/C(=C\C#Cc3ccc(N)cc3)CO2)[C@]1(C)O | 700906 (erythromycin-resistant-ERM) | 0.25 µg/mL
CC[C@H]1OC(=O)[C@H](C)C(=O)[C@H](C)[C@@H](O[C@@H]2O[C@H](C)C[C@H](N(C)C)[C@H]2O)[C@@]2(C)C[C@@H](C)C(=NC(C)=O)[C@H](C)[C@@H](OC/C(=N\OCCc3ccccc3)CO2)[C@]1(C)O | 49619 (erythromycin-susceptible) | <0.06 µg/mL
CC[C@H]1OC(=O)[C@H](C)C(=O)[C@H](C)[C@@H](O[C@@H]2O[C@H](C)C[C@H](N(C)C)[C@H]2O)[C@@]2(C)C[C@@H](C)C(=NC(C)=O)[C@H](C)C(OC/C(=C\c3ccccc3)CO2)[C@]1(C)O | 49619 (erythromycin-susceptible) | <0.06 µg/mL
CC[C@H]1OC(=O)[C@H](C)C(=O)[C@H](C)[C@@H](O[C@@H]2O[C@H](C)C[C@H](N(C)C)[C@H]2O)[C@@]2(C)C[C@@H](C)C(=NC(C)=O)[C@H](C)[C@@H](OC/C(=N\Oc3ccc(-c4nnc(N)s4)cc3)CO2)[C@]1(C)O | 49619 (erythromycin-susceptible) | <0.06 µg/mL
N#Cc1cnn(-c2ccc(C3=NO[C@@H](CNC(=O)O)C3)cc2F)c1 | UC9912 | 0.5 µg/mL
CC[C@H]1OC(=O)[C@@](C)(F)C(=O)[C@H](C)[C@@H](O[C@@H]2O[C@H](C)C[C@H](N(C)C)[C@H]2O)[C@@]2(C)C[C@@H](C)C(=NC(C)=O)[C@H](C)[C@@H](OC/C(=N\OCc3ccc(-c4ncccn4)s3)CO2)[C@]1(C)O | 49619 (erythromycin A-susceptible) | <0.06 µg/mL
COC(=O)N1CC=C(c2ccc(C3=NO[C@@H](CNC(=O)O)C3)cc2)CC1 | UC9912 | 0.5 µg/mL
CC[C@H]1OC(=O)[C@H](C)C(=O)[C@H](C)[C@@H](O[C@@H]2O[C@H](C)C[C@H](N(C)C)[C@H]2O)[C@@]2(C)C[C@@H](C)C(=NC(C)=O)[C@H](C)[C@@H](OC/C(=N\OCc3ccc(-c4cccc(N)n4)s3)CO2)[C@]1(C)O | 49619 (erythromycin A-susceptible) | <0.06 µg/mL
CC[C@H]1OC(=O)[C@H](C)C(=O)[C@H](C)[C@@H](O[C@@H]2O[C@H](C)C[C@H](N(C)C)[C@H]2O)[C@@]2(C)C[C@@H](C)C(=NC(C)=O)[C@H](C)C(OC/C(=C\C=C\c3ccc(OC)cc3)CO2)[C@]1(C)O | 7701 (erythromycin-resistant-MEF) | 0.5 µg/mL
CC[C@H]1OC(=O)[C@H](C)C(=O)[C@H](C)[C@@H](O[C@@H]2O[C@H](C)C[C@H](N(C)C)[C@H]2O)[C@@]2(C)C[C@@H](C)C(=NC(C)=O)[C@H](C)[C@@H](OC/C(=N/OCc3ccc(-c4cccc(N)n4)s3)CO2)[C@]1(C)O | 7701 (erythromycin A-resistant) | 0.25 µg/mL
CN1CCN(c2ccc3c(=O)c(C(=O)O)cn(C4CC4)c3c2)CC1 | R6 | 32 µg/mL
CC[C@H]1OC(=O)[C@@](C)(F)C(=O)[C@H](C)[C@@H](O[C@@H]2O[C@H](C)C[C@H](N(C)C)[C@H]2O)[C@@]2(C)C[C@@H](C)C(=NC(C)=O)[C@H](C)[C@@H](OC/C(=N\OCc3ccc(-n4cccn4)nc3)CO2)[C@]1(C)O | 49619 (erythromycin A-susceptible) | <0.06 µg/mL
CC[C@H]1OC(=O)[C@H](C)C(=O)[C@H](C)[C@@H](O[C@@H]2O[C@H](C)C[C@H](N(C)C)[C@H]2O)[C@@]2(C)C[C@@H](C)C(=NC(C)=O)[C@H](C)C(OC/C(=C\C#Cc3ccc(N)nc3)CO2)[C@]1(C)O | 7701 (erythromycin-resistant-MEF) | 0.13 µg/mL
CC[C@H]1OC(=O)[C@H](C)C(=O)[C@H](C)[C@@H](O[C@@H]2O[C@H](C)C[C@H](N(C)C)[C@H]2O)[C@@]2(C)C[C@@H](C)C(=NC(C)=O)[C@H](C)[C@@H](OC/C(=N\OCC#Cc3ncccn3)CO2)[C@]1(C)O | 700906 (erythromycin-resistant-ERM) | 0.5 µg/mL
N[C@@H]1CN(c2c(F)cc3c(=O)c(C(=O)O)cn([C@@H]4C[C@@H]4F)c3c2Cl)CC12CC2 | J24 (quinolone- penicillin-sensitive) | 0.05 µg/mL
CC[C@H]1OC(=O)[C@@](C)(F)C(=O)[C@H](C)[C@@H](O[C@@H]2O[C@H](C)C[C@H](N(C)C)[C@H]2O)[C@@]2(C)C[C@@H](C)C(=NC(C)=O)[C@H](C)[C@@H](OC/C(=N\OCc3ccc(C(N)=O)s3)CO2)[C@]1(C)O | 700906 (erythromycin A-resistant) | <0.06 µg/mL
CC[C@H]1OC(=O)[C@H](C)C(=O)[C@H](C)[C@@H](O[C@@H]2O[C@H](C)C[C@H](N(C)C)[C@H]2O)[C@@]2(C)C[C@@H](C)C(=NC(C)=O)[C@H](C)[C@@H](OC/C(=N\OCCCc3ccccc3)CO2)[C@]1(C)O | 49619 (erythromycin-susceptible) | <0.06 µg/mL
CC1(C)S[C@@H]2[C@H](NC(=O)Cc3ccccc3)C(=O)N2[C@H]1C(=O)O | J24 (quinolone- penicillin-sensitive) | 0.025 µg/mL
CC[C@H]1OC(=O)[C@H](C)[C@@H](O[C@H]2C[C@@](C)(OC)[C@@H](O)[C@H](C)O2)[C@H](C)[C@@H](O[C@H]2O[C@@H](C)C[C@@H](N(C)C)[C@@H]2O)[C@](C)(O)C[C@@H](C)C(=O)[C@H](C)[C@@H](O)[C@]1(C)O | 49619 (erythromycin A-susceptible) | <0.06 µg/mL

For reference, 3 entries again:

structure | strain or isolate | value
CC[C@H]1OC(=O)[C@H](C)C(=O)[C@H](C)[C@@H](O[C@@H]2O[C@H](C)C[C@H](N(C)C)[C@H]2O)[C@@]2(C)C[C@@H](C)C(=NC(C)=O)[C@H](C)[C@@H](OC/C(=N\OCC#Cc3cncnc3)CO2)[C@]1(C)O | 700906 (erythromycin-resistant-ERM) | 4 µg/mL
CC[C@H]1OC(=O)[C@@](C)(F)C(=O)[C@H](C)[C@@H](O[C@@H]2O[C@H](C)C[C@H](N(C)C)[C@H]2O)[C@@]2(C)C[C@@H](C)C(=NC(C)=O)[C@H](C)[C@@H](OC/C(=N\OCc3ccc(N)nc3)CO2)[C@]1(C)O | 49619 (erythromycin A-susceptible) | <0.06 µg/mL
CC1(C)S[C@@H]2[C@H](NC(=O)Cc3ccccc3)C(=O)N2[C@H]1C(=O)O | J24 (quinolone- penicillin-sensitive) | 0.025 µg/mL